These results are taken from patent publication US20120094280.

The data set has as its target T1, M.HhaI DNA cytosine-C5 methyltransferase (UniProt P05102).
T1 sequence (looked up, limits assumed): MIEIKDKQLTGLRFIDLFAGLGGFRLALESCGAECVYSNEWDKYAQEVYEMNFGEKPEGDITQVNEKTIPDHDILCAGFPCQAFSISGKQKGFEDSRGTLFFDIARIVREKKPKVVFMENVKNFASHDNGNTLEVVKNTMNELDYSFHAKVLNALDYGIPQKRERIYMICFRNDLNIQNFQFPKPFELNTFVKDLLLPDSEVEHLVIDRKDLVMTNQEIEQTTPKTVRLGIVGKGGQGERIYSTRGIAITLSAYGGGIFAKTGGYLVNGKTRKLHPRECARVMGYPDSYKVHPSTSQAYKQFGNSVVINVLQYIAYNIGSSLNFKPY
Put plainly: activity assay. The note with it: aldehyde coupling to target C5, HPLC-MS; pH 7.0, 1 mM EDTA, 15 mM NaCl, room temperature; purified recombinant protein.

Protein sequences can lack the tags named with them.

For “TAATAATGCGCTAATAATAATAAT / ATTATTATTATTAGCGCATTATT [duplex I:II]”, the “activity on this sequence” value is on record as “active”.
